Pooled drug test results. Numbers come from NIAID ChemDB, via PubChem.

Common to all: tests in culture; organism: HIV-1; cells: MT-4; read-out: EC50

a–b is a range or a potency band.

SMILES	strain	mutations	read by	setting	value
Nc1ncnc2c1ncn2CCOCP(=O)(OCOC(=O)OC1CCCC1)OCOC(=O)OC1CCCC1	-	-	p24	-	3.51 µM
CN(CCc1c[nH]c2ccccc12)[C@@H]1CC2=CC(=O)O[C@@]23C[C@@H]1N1CCC[C@@H]13	NL4-3	-	MTT / absorbance	-	42.6 µM
Cc1cn([C@H]2C[C@H](N=[N+]=[N-])[C@@H](CO)O2)c(=O)[nH]c1=O	RF	-	cytopathic effect / MTT	-	0.0011 µM
Cc1cc(C)c(Nc2nc(NC3CCN(Cc4ccccc4C)CC3)nc3nc[nH]c23)c(C)c1	IIIB	-	MTT	-	>7.81 µM
CCCCOc1nc(N)nc2c1ncn2[C@H]1C[C@H](N=[N+]=[N-])[C@@H](CO)O1	IIIB	-	cytopathic effect	-	19 µM
Cc1cc(C)c(CN2CCC(Nc3nc(Nc4c(C)cc(C)cc4C)c4[nH]cnc4n3)CC2)c(C)c1	IIIB	-	MTT	-	>4.8 µM
NC(=O)C[C@H](NC(=O)OCc1ccccc1)C(=O)N[C@@H](Cc1ccccc1)C(=O)C(F)(F)CCc1ccccc1	-	-	cytopathic effect	-	10.8 µM
C=CCOC(=O)OCOP(=O)(O)COCCn1cnc2c(N)ncnc21	IIIB	-	p24	-	23.7 µM
Cc1cn([C@H]2C[C@H](N=[N+]=[N-])[C@@H](CO)O2)c(=O)[nH]c1=O	-	K103N mutant	MTT	-	0.008 µM
Nc1nc(Cl)nc2c1ncn2[C@@H]1O[C@H](CO)[C@H]1O	IIIB	-	-	-	0.44 µg/mL
[N-]=[N+]=N[C@H]1C[C@H](n2cnc3c(N4CCC4)nc(N)nc32)O[C@@H]1CO	IIIB	-	cytopathic effect	-	9 µM
Nc1ccn([C@H]2CC[C@@H](CO)O2)c(=O)n1	HE	-	cytopathic effect / MTT	-	0.019 µM
Cc1cc(C)c(Nc2nc(NC3CCN(Cc4ccccc4)CC3)nc3nc[nH]c23)c(C)c1	RES056	-	MTT	-	>25.95 µM
C=CCN1Cc2cccc3[nH]c(=O)n(c23)CC1C	IIIB	-	cytopathic effect / MTT	-	62 µM
CCn1cc(C(=O)O)c(=O)c2ccc(C)nc21	-	-	cytopathic effect / MTT	-	>250 µg/mL
Cc1cn([C@H]2C[C@H](N=[N+]=[N-])[C@@H](CO)O2)c(=O)[nH]c1=O	IIIB	-	MTT	-	0.007 µM
FC(F)(F)c1ccnc2c1NC(=NC1CC1)c1cccnc1N2C1CC1	IIIB	-	cytopathic effect / MTT	-	>200 µM
CN(c1nc(N)nc2c1ncn2[C@H]1C[C@H](N=[N+]=[N-])[C@@H](CO)O1)C1CC1	IIIB	-	cytopathic effect	-	4 µM
Cc1ccnc2c1NC(=O)c1cccnc1N2C1CC1	RES056	-	MTT	-	≥9.84 µM
O=C1C=C2C(C3CC4=C([C@@H]5CC6=CC(=O)O[C@@]67C[C@@H]5N5CCC[C@@H]57)C(=O)O[C@@]45C[C@@H]3N3CCC[C@@H]35)=C[C@@H]3C[C@@]2(O1)[C@H]1CCCN31	NL4-3	-	MTT / absorbance	-	122 µM
CC(C)=CCN1Cc2cc(Cl)cc3[nH]c(=S)n(c23)C[C@@H]1C	-	RT-M41L T215Y K103N	-	-	<3 µM
CC(C)c1nc(CN(C)C(=O)N[C@H](C(=O)N[C@@H](Cc2ccccc2)C[C@H](O)[C@H](Cc2ccccc2)NC(=O)OCc2cncs2)C(C)C)cs1	HXB2	-	-	-	0.78 µM
CN(C)C(c1ccccc1)c1nc(C(=O)NCc2ccc(F)cc2)c(O)c(=O)[nH]1	-	-	p24	10% FBS	<0.3 µM
CC(C)[C@H](NC(=O)OCc1ccccn1)C(=O)N[C@@H](Cc1ccccc1)C(=O)C(F)(F)CCc1ccccc1	-	-	cytopathic effect	-	6.3 µM
O=C1Nc2cccnc2N(C2CC2)c2ncccc21	IIIB	-	cytopathic effect / MTT	-	1 µM
C[C@H]1COc2c(N3CCN(C)CC3)c(F)cc3c(=O)c(C(=O)O)cn1c23	IIIB	-	cytopathic effect / XTT	-	>50 µg/mL
Cc1cc(C)c(Nc2nc(NC3CCN(Cc4cccc(F)c4)CC3)nc3nc[nH]c23)c(C)c1	IIIB	-	MTT	-	>30.68 µM
N#Cc1nc(N)nc2c1ncn2[C@H]1C[C@H](N=[N+]=[N-])[C@@H](CO)O1	IIIB	-	cytopathic effect	-	>200 µM
Cc1cc(C)c(Nc2nc(NC3CCN(Cc4ccncc4)CC3)nc3nc[nH]c23)c(C)c1	RES056	-	MTT	-	>141 µM
Nc1nc(F)nc2c1ncn2[C@@H]1O[C@H](CO)[C@H]1O	IIIB	-	-	-	0.016 µg/mL
O=C1C=C2C([C@H]3C([C@H]4CC5=CC(=O)O[C@@]56C[C@@H]4N4CCC[C@@H]46)C4=CC(=O)O[C@@]45C[C@@H]3N3CCC[C@@H]35)=C[C@@H]3C[C@@]2(O1)[C@H]1CCCN31	NL4-3	-	MTT / absorbance	-	108 µM
C=CCN1Cc2cccc3[nH]c(=O)n(c23)C[C@H]1C	IIIB	-	cytopathic effect / MTT	-	>500 µM
Cc1cc(C)c(Nc2nc(NC3CCN(Cc4ccccc4F)CC3)nc3nc[nH]c23)c(C)c1	IIIB	-	MTT	-	>23.61 µM
O=C1N(Cc2ccc(CO)cc2)[C@H](Cc2ccccc2)[C@H](O)CN(Cc2ccoc2)N1Cc1ccc(CO)cc1	-	-	-	-	0.1 µM
CCn1cc(C(=O)O)c(=O)c2cc(F)c(N3CCNCC3)cc21	IIIB	-	cytopathic effect / XTT	-	>50 µg/mL
Cc1cn([C@H]2C[C@H](N=[N+]=[N-])[C@@H](CO)O2)c(=O)[nH]c1=O	IIIB	RT-D67N K70R K172R	cytopathic effect / MTT	-	0.051 µM
[N-]=[N+]=N[C@H]1C[C@H](n2cnc3c(=S)nc(N)[nH]c32)O[C@@H]1CO	IIIB	-	cytopathic effect	-	>32 µM
O=C1N(Cc2ccc(CO)cc2)[C@H](Cc2ccccc2)[C@H](O)CN(Cc2ccccc2)N1Cc1ccc(CO)cc1	-	-	-	-	0.09 µM
CC(C)[C@H](NC(=O)NCc1ccccn1)C(=O)N[C@@H](Cc1ccccc1)C(=O)C(F)(F)CCc1ccccc1	-	-	cytopathic effect	-	7.6 µM
CC(C)OC(=O)OCOP(=O)(CO[C@H](C)Cn1cnc2c(N)ncnc21)OCOC(=O)OC(C)C	-	-	p24	-	2.31 µM
Nc1ccn([C@H]2CC[C@@H](CO)O2)c(=O)n1	RF	-	RT activity	-	0.001 µM
CCn1cc(C(=O)O)c(=O)c2cc3c(cc21)OCO3	-	-	cytopathic effect / MTT	-	>200 µg/mL
Cc1cc(C)c(Nc2nc(NC3CCN(Cc4cccnc4)CC3)nc3nc[nH]c23)c(C)c1	IIIB	-	MTT	-	19.55 µM
[N-]=[N+]=N[C@H]1C[C@H](n2cnc3c(NCCc4ccccc4)nc(N)nc32)O[C@@H]1CO	IIIB	-	cytopathic effect	-	21 µM
Nc1ccn([C@H]2CC[C@@H](CO)O2)c(=O)n1	IIIB	-	cytopathic effect / MTT	-	0.47–1.1 µM
CN1CCOCC1c1nc(C(=O)NCc2ccc(F)cc2)c(O)c(=O)[nH]1	-	-	p24	10% FBS	<0.03 µM
O=C1C=C2C=C[C@@H]3C[C@@]2(O1)[C@H]1CCCCN31	NL4-3	-	MTT / absorbance	-	19.3 µM
COc1cccc(CN2C(=O)N(Cc3cccc(OC)c3)N(Cc3ccccc3)C[C@@H](O)[C@H]2Cc2ccccc2)c1	-	-	-	-	0.93 µM
Cc1cn([C@H]2C[C@H](N=[N+]=[N-])[C@@H](COP(=O)(O)OC[C@@H]3O[C@H](n4cnc(C(N)=O)n4)[C@@H](O)[C@H]3O)O2)c(=O)[nH]c1=O	IIIB	-	cytopathic effect	-	0.004 µM
CC(c1nc(C(=O)NCc2ccc(F)cc2)c(O)c(=O)[nH]1)N(C)C	-	-	p24	50% human serum	<0.5 µM
Nc1nc(=O)n([C@@H]2CS[C@H](CO)O2)cc1F	IIIB	-	p24	-	27.7 µM
NC(=O)c1ncn([C@@H]2O[C@H](CO)[C@@H](O)[C@H]2O)n1	IIIB	RT-D67N K70R K172R	cytopathic effect / MTT	-	>3.3 µM
CCN(C)c1nc(N)nc2c1ncn2[C@H]1C[C@H](N=[N+]=[N-])[C@@H](CO)O1	IIIB	-	cytopathic effect	-	11 µM
O=C(O)/C(O)=C/c1ccc(Oc2ccccc2)cn1	IIIB	-	cytopathic effect / MTT	-	78 µM

A second listing of 8 rows from above:

SMILES | strain | mutations | read by | setting | value
O=C1N(Cc2ccc(CO)cc2)[C@H](Cc2ccccc2)[C@H](O)CN(Cc2ccccc2)N1Cc1ccc(CO)cc1 | - | - | - | - | 0.09 µM
Cc1cc(C)c(Nc2nc(NC3CCN(Cc4ccccc4F)CC3)nc3nc[nH]c23)c(C)c1 | IIIB | - | MTT | - | >23.61 µM
CCn1cc(C(=O)O)c(=O)c2cc(F)c(N3CCNCC3)cc21 | IIIB | - | cytopathic effect / XTT | - | >50 µg/mL
Cc1cc(C)c(Nc2nc(NC3CCN(Cc4ccccc4)CC3)nc3nc[nH]c23)c(C)c1 | RES056 | - | MTT | - | >25.95 µM
C=CCOC(=O)OCOP(=O)(O)COCCn1cnc2c(N)ncnc21 | IIIB | - | p24 | - | 23.7 µM
CCN(C)c1nc(N)nc2c1ncn2[C@H]1C[C@H](N=[N+]=[N-])[C@@H](CO)O1 | IIIB | - | cytopathic effect | - | 11 µM
O=C1N(Cc2ccc(CO)cc2)[C@H](Cc2ccccc2)[C@H](O)CN(Cc2ccoc2)N1Cc1ccc(CO)cc1 | - | - | - | - | 0.1 µM
Nc1ccn([C@H]2CC[C@@H](CO)O2)c(=O)n1 | HE | - | cytopathic effect / MTT | - | 0.019 µM

ECn is the concentration giving n% inhibition of infection, replication or growth. An empty or dashed field is not shown. Neighbouring rows are from separate reports.